Measured values from several laboratories, pooled; numbers as filed in NIAID ChemDB.

All rows: cytotoxicity tests; cells: PBMC; endpoint: CC50

Neighbouring rows are from separate reports. CCn: concentration that lowers growth or viability of the cells by n%.

SMILES,value
Oc1ccccc1-c1c2nc(c(-c3ccccc3O)c3ccc([nH]3)c(-c3ccccc3O)c3nc(c(-c4ccccc4O)c4ccc1[nH]4)C=C3)C=C2,50 µM
Oc1ccc(CNCCCNCc2ccc(O)c3ncccc23)c2cccnc12,>10 µM
CCCCCc1ccc(C#Cc2cn(CC=C(CO)CO)c(=O)[nH]c2=O)cc1,3.4 µM
NNC(=O)NN1C(=O)c2cc(S(=O)(=O)[O-])cc3c(N)c(S(=O)(=O)[O-])cc(c23)C1=O,>100 µM
Cc1cn([C@H]2C=C[C@@H](CO)O2)c(=O)[nH]c1=O,70 µM
S=C(NCCc1ccc(Br)cc1)Nc1ccc(Br)cn1,>100 µM
C=C(C)[C@]12C[C@@H](COc3ccccc3)[C@@]34OC5(OC1[C@@H]3[C@@H]1O[C@]1(CO)[C@@H](O)[C@]1(O)[C@@H](Oc3ccccc3)[C@@H](C)[C@H]([C@H](C)CCCCC[C@@H]5O)[C@]14C)O2,>2.5 µM
COc1ccccc1-c1c2nc(c(-c3ccccc3OC)c3ccc([nH]3)c(-c3ccccc3OC)c3nc(c(-c4ccccc4OC)c4ccc1[nH]4)C=C3)C=C2,200 µM
NC(=O)CC(NC(=O)c1ccc2ccccc2n1)C(=O)N[C@@H](Cc1ccccc1)[C@H]1O[C@H]1CNS(=O)(=O)c1ccc(N)cc1,>10 µM
CC(C)(C)NC(=O)C1N(C(=O)[C@@H](O)[C@H](Cc2ccccc2)NC(=O)[C@H](CS(C)(=O)=O)NC(=O)COc2cccc3ccccc23)CSC1(C)C,19 µM
c1cc(CN2CCCNCCNCCCNCC2)ccc1CN1CCCNCCNCCCNCC1,>100 µM
COc1ccc(OC)c(CCNC(=S)Nc2ccc(Br)cn2)c1,>100 µM
O=c1[nH]c(=O)n([C@H]2C[C@H](O)[C@@H](CO)O2)cc1C12B3B4B5B6B(B3B1B42)B1B5C61,>100 µM
COc1cccc(OC)c1-c1c2nc(c(-c3c(OC)cccc3OC)c3ccc([nH]3)c(-c3c(OC)cccc3OC)c3nc(c(-c4c(OC)cccc4OC)c4ccc1[nH]4)C=C3)C=C2,>100 µM
Cc1cc(SC2=C(O)C[C@@](CCc3ccc(O)cc3)(C(C)C)OC2=O)c(C(C)(C)C)cc1N,>100 µM
C[C@]1(/C=C/P(=O)(O)O)CO[C@@H](n2cnc3c(N)ncnc32)C1,>100 µM
CCCCCc1ccc(C#Cc2cn(COCCO)c(=O)[nH]c2=O)cc1,8.3 µM
Nc1ncnc2c1ncn2[C@H]1CC[C@@H](CO)O1,22 µM
CNc1ncnc2c1ncn2[C@@H]1O[C@H](CO)C[C@@H]1F,100 µM
CC(C)CN(C[C@@H](O)[C@H](Cc1ccccc1)NC(=O)O[C@H]1CCOC1)S(=O)(=O)c1ccc(N)cc1,>100 µM
CC(C)(C)NC(=O)[C@@H]1C[C@@H]2CCCC[C@@H]2CN1C[C@@H](O)[C@H](Cc1ccccc1)NC(=O)[C@H](CC(N)=O)NC(=O)c1ccc2ccccc2n1,>10 µM
CSC[C@H](NC(=O)COc1cccc2cnccc12)C(=O)N[C@@H](Cc1ccccc1)[C@H](O)C(=O)N1CSC(C)(C)[C@H]1C(=O)NC(C)(C)C,49 µM
Nc1ccn([C@@H]2C=C(F)[C@H](CO)O2)c(=O)n1,86.9 µM
Nc1nc2c(ncn2[C@H]2CC[C@@H](CO)O2)c(=O)[nH]1,>100 µM
Oc1ccc(/C=C/c2cc(O)cc(O)c2)cc1,>10 µM
Nc1c(S(=O)(=O)O)cc2c3c(cc(S(=O)(=O)O)cc13)C(=O)N(NC(=O)N/N=C/c1ccc(-c3ccc(/C=N/NC(=O)NN4C(=O)c5cc(S(=O)(=O)O)cc6c(N)c(S(=O)(=O)O)cc(c56)C4=O)cc3)cc1)C2=O,>100 µM
c1cc(CN2CCCNCCNCCCNCC2)ccc1CN1CCCNCCNCCCNCC1,>300 µM
Oc1cc(O)cc(-c2c3nc(c(-c4cc(O)cc(O)c4)c4ccc([nH]4)c(-c4cc(O)cc(O)c4)c4nc(c(-c5cc(O)cc(O)c5)c5ccc2[nH]5)C=C4)C=C3)c1,>100 µM
CC(C)=CCOc1cc(NC(=S)c2ccoc2C)ccc1Cl,619.5 µM
O=C(O)c1cc(O)cc(O)c1N=Nc1ccc(/C=C/c2ccc(N=Nc3c(O)cc(O)cc3C(=O)O)cc2S(=O)(=O)O)c(S(=O)(=O)O)c1,>100 µg/mL
C1CNCCNCCCN(CCCN2CCCNCCNCCCNCC2)CCNC1,>300 µM
Nc1ncnc2c1ncn2[C@H]1CC[C@@H](CO)O1,100 µM
CCO[C@H]1O[C@@H]2OC3(C)CC[C@H]4[C@H](C)CC[C@@H]([C@H]1C)[C@@]24OO3,30.9 µM
CSCSc1nc(Cc2cc(C)cc(C)c2)c(C(C)C)c(=O)[nH]1,>100 µM
N#CCn1ccc(=O)n(Cc2ccc3ccccc3c2)c1=O,229 µM
S=C(NCCN1CCCCC1)Nc1ccc(Br)cn1,>100 µM
CCCCCCCCCCCCCCCC(=O)OCC(CO)(CO)NC(=O)CNC(=O)CCC(=O)OC[C@H]1O[C@@H](n2cc(C)c(=O)[nH]c2=O)C[C@@H]1N=[N+]=[N-],27 µM
CSc1ncnc2c1ncn2[C@H]1CC[C@@H](CO)O1,100 µM
CCCCN(C)C(=O)N[C@H](C(=O)N[C@@H](Cc1ccccc1)[C@H]1O[C@H]1CC(=O)NC(Cc1ccccc1)C(C)C)C(C)(C)S(C)(=O)=O,>10 µM
CCCCCCCCC#Cc1cn(COCCO)c(=O)[nH]c1=O,72.1 µM
CCCCC/C=C\C/C=C\C/C=C\C/C=C\CCCC(=O)NCCc1ccc(O)c(O)c1,>5 µM
CN=C1CN=C(c2ccc[nH]2)c2cc(Cl)ccc2N1,>40 µM
Nc1nc(N)c2ncn([C@H]3CO[C@@H](CO)O3)c2n1,>1000 µM
Fc1ccccc1CCNC(=S)Nc1ccc(Br)cn1,>100 µM
CCCC[C@H]1O[C@@H]2OC3(C)CC[C@H]4[C@H](C)CC[C@@H]([C@H]1C)C24OO3,1.3 µM
Nc1ccccc1-c1c2nc(c(-c3ccccc3N)c3ccc([nH]3)c(-c3ccccc3N)c3nc(c(-c4ccccc4N)c4ccc1[nH]4)C=C3)C=C2,>200 µM
C#CCn1ccc(=O)n(Cc2cc(C)cc(C)c2)c1=O,295 µM
CCCCCCCCc1cc2cn(CC=C(CO)CO)c(=O)nc2o1,91 µM
C#C[C@]1(CO)O[C@@H](n2cnc3c(N)ncnc32)C=C1F,>100 µM
OC[C@@H]1CC[C@H](n2cnc3c(NCc4ccccc4)ncnc32)O1,~10 µM
CC(C)Nc1cccnc1N1CCN(C(=O)c2cc3cc(NS(C)(=O)=O)ccc3[nH]2)CC1,>100 µM
Nc1nc2c(ncn2[C@H]2CC[C@@H](CO)O2)c(=O)[nH]1,>100 µM
CC(=O)OC[C@H]1O[C@@H](SCCOP(=O)(OCCS[C@@H]2O[C@H](CO)[C@@H](O)[C@H](O)[C@H]2O)OC[C@H]2O[C@@H](n3cc(C)c(=O)[nH]c3=O)C[C@@H]2N=[N+]=[N-])[C@H](OC(C)=O)[C@@H](OC(C)=O)[C@@H]1OC(C)=O,>10 µM
CCCCCc1ccc(-c2cc3cn(CC=C(CO)CO)c(=O)nc3o2)cc1,11.1 µM
C[C@@H]1CC[C@H]2[C@@H](C)CO[C@@H]3OC4(C)CC[C@@H]1[C@]32OO4,>100 µM
CCOCn1c([Se]c2ccccc2)cc(=O)[nH]c1=O,>100 µM
CCCCCc1cc2cn(COCCO)c(=O)nc2o1,54.4 µM
CCOCn1c([Se]c2ccccc2)c(C)c(=O)[nH]c1=O,>100 µM
CC(C)[C@H](NC(=O)c1ccc2ccccc2n1)C(=O)N[C@@H](Cc1ccccc1)[C@H](O)CN1CC[C@@H](OCc2ccncc2)C[C@H]1C(=O)NC(C)(C)C,33 µM
C[C@]1(CCP(=O)(O)O)CO[C@@H](n2cnc3c(N)ncnc32)C1,42.4 µM
Cc1cn([C@H]2C[C@H](N=[N+]=[N-])[C@@H](CO)O2)c(=O)[nH]c1=O,>0.08 µM
C[C@H](Cn1cnc2c(N)ncnc21)OCP(=O)(O)O,27.3 µM
Oc1ccc(CCl)c2cccnc12,>10 µM
Cc1cc(C)cc(Cn2c(=S)ccn(Cc3ccccc3)c2=O)c1,>371 µM
Nc1ncnc2c1ncn2[C@H]1C=C[C@@H](CO)O1,>100 µM
Cc1cc(C)nc(Cn2c(=O)ccn(Cc3c(F)cccc3F)c2=O)c1,144 µM
CC(=O)OC[C@H]1O[C@@H](SCCOP(=O)(OCS[C@@H]2O[C@H](COC(C)=O)[C@@H](OC(C)=O)[C@H](OC(C)=O)[C@H]2OC(C)=O)OC[C@H]2O[C@@H](n3cc(C)c(=O)[nH]c3=O)C[C@@H]2N=[N+]=[N-])[C@H](OC(C)=O)[C@@H](OC(C)=O)[C@@H]1OC(C)=O,>10 µM
CCCCCCCCc1cc2cn(COCCO)c(=O)nc2o1,52.9 µM
COC(=O)N[C@H](C(=O)N[C@@H](Cc1ccccc1)[C@@H](O)CN(Cc1ccc(-c2ccccn2)cc1)NC(=O)[C@@H](NC(=O)OC)C(C)(C)C)C(C)(C)C,50 µM
CCc1cn([C@H]2C=C[C@@H](CO)O2)c(=O)[nH]c1=O,>100 µM
CCc1cn([C@H]2C[C@H](N=[N+]=[N-])[C@@H](CO)O2)c(=O)[nH]c1=O,~1600 µM
CC(C)OCC(=O)N[C@H](C(=O)N[C@@H](Cc1ccccc1)[C@H]1O[C@H]1CC(=O)NC(Cc1ccccc1)C(C)C)C(C)(C)S(C)(=O)=O,>10 µM
Cc1cn([C@H]2C[C@H](N=[N+]=[N-])[C@@H](COP(=O)(OCCS[C@@H]3O[C@H](CO)[C@@H](O)[C@H](O)[C@H]3O)OCCS[C@@H]3O[C@H](CO)[C@@H](O)[C@H](O)[C@H]3O)O2)c(=O)[nH]c1=O,>10 µM
CCN1c2cc(C)c(C)cc2N(C)S(=O)(=O)c2cccnc21,>50 µM
Oc1ccc(CN2CCCNCCNCCCNCC2)c2cccnc12,>10 µM
CCN1c2ncccc2N(C)C(=S)c2sc3cccnc3c21,31 µM
CNc1ncnc2c1ncn2[C@H]1C=C[C@@H](CO)O1,>100 µM

11 of the rows above, restated:

SMILES	value
CCCCCCCCCCCCCCCC(=O)OCC(CO)(CO)NC(=O)CNC(=O)CCC(=O)OC[C@H]1O[C@@H](n2cc(C)c(=O)[nH]c2=O)C[C@@H]1N=[N+]=[N-]	27 µM
C[C@H](Cn1cnc2c(N)ncnc21)OCP(=O)(O)O	27.3 µM
COc1cccc(OC)c1-c1c2nc(c(-c3c(OC)cccc3OC)c3ccc([nH]3)c(-c3c(OC)cccc3OC)c3nc(c(-c4c(OC)cccc4OC)c4ccc1[nH]4)C=C3)C=C2	>100 µM
Fc1ccccc1CCNC(=S)Nc1ccc(Br)cn1	>100 µM
Nc1c(S(=O)(=O)O)cc2c3c(cc(S(=O)(=O)O)cc13)C(=O)N(NC(=O)N/N=C/c1ccc(-c3ccc(/C=N/NC(=O)NN4C(=O)c5cc(S(=O)(=O)O)cc6c(N)c(S(=O)(=O)O)cc(c56)C4=O)cc3)cc1)C2=O	>100 µM
Cc1cc(C)nc(Cn2c(=O)ccn(Cc3c(F)cccc3F)c2=O)c1	144 µM
CCCCCc1ccc(-c2cc3cn(CC=C(CO)CO)c(=O)nc3o2)cc1	11.1 µM
Nc1ncnc2c1ncn2[C@H]1CC[C@@H](CO)O1	22 µM
CCCCN(C)C(=O)N[C@H](C(=O)N[C@@H](Cc1ccccc1)[C@H]1O[C@H]1CC(=O)NC(Cc1ccccc1)C(C)C)C(C)(C)S(C)(=O)=O	>10 µM
CCCCCCCCc1cc2cn(COCCO)c(=O)nc2o1	52.9 µM
C#C[C@]1(CO)O[C@@H](n2cnc3c(N)ncnc32)C=C1F	>100 µM